The values that follow come from paper PMC10513286, “A serpin gene from a parasitoid wasp disrupts host immunity and exhibits adaptive alternative splicing” (2023).

The target of this experiment is Recombinant PrPAP1Xa (activated PrPAP1) (Pieris rapae).

As for “PpSerpin-1A (Pteromalus puparum serpin 1, isoform A), recombinant (natural protein)”, the stoichiometry of inhibition (SI) of PrPAP1 stood at 13.4.
Consider “PpSerpin-1P (Pteromalus puparum serpin 1, isoform P), recombinant (natural protein)”, for which the stoichiometry of inhibition (SI) of PrPAP1 was found to be 197.
